Anti-infective test results gathered from many reports (values: NIAID ChemDB through PubChem).

Common to all: whole-cell or culture tests; species: Rhinovirus

MIC50, MIC90 and the like: level of inhibition, or share of isolates inhibited. Lines come from different laboratories, so protocols vary. ECn: concentration that inhibits the pathogen or its effect by n%. Blank or dashed fields: not listed here. a–b is a range or a potency band.

smiles	strain or isolate	cell line	method	endpoint	value
Cc1ccccc1Cn1cnc2c(N(C)C)nc(C(F)(F)F)nc21	Serotype 2	M-HELA	plaque count	EC50	>8 µM
Cc1cc(CCCOc2c(C)cc(-c3noc(C(F)(F)F)n3)cc2C)on1	Serotype 1A	-	-	EC90	1.4 µM
Cc1ccc(CCCOc2cc(C)c(-c3noc(C(F)(F)F)n3)c(C)c2)nn1	serotypes 3 4 5 9 16 18 38 66 75 67	HeLa	cytopathic effect	EC80	0.117 µg/mL
CSc1ccc(C(=O)CCCCOc2ccc(C3=NCCO3)cc2)cc1	serotype 1A 1B 2 6 14 15 21 22 25 29 30 41 42 45 59 63 67 70 72 86 89	-	-	MIC80	>271 µM
N#Cc1ccc(Oc2ccc(F)cc2)nc1	TYPE 1A	HeLa	cytopathic effect	EC50	34 µM
Cc1cc(OCCCc2ccc(C(F)F)nn2)cc(C)c1-c1noc(C(F)F)n1	serotypes 3 4 5 9 16 18 38 66 75 67	HeLa	cytopathic effect	EC50	0.1 µg/mL
CO/N=C(\C)c1ccc(OCCC2CCN(c3ccc(C)nn3)CC2)cc1	TYPE 1A	KB	cytopathic effect / visual reading	EC50	<0.0032 µg/mL
CCOC(=O)c1ccc(OCCCCC(=O)c2ccc(C)s2)cc1	TYPE 2	HeLa	cytopathic effect	EC50	1.3 µM
CCN=C1CCC(C(=O)NCCC#N)N1	Serotype 2	-	-	MIC	>100 µg/mL
Cc1cc(CCCOc2c(C)cc(-c3nnc(C)o3)cc2C)on1	serotype 2 1A 1B 6 14 21 22 15 25 30 50 67 89 86 41	HeLa	plaque count	EC50	0.026 µg/mL
COc1ccc(C(=O)CCCCOc2ccc(C3=NCCO3)cc2)cc1	Serotype 2	HeLa	cytopathic effect	EC50	>283 µM
N#Cc1ccc(C2=Cc3ccccc3OC2)cc1	Serotype 1B	HeLa	cytopathic effect	EC25	40 µM
CS(=O)(=O)c1ccc(NCc2ccc(Cl)cc2)nc1	TYPE 64	HeLa	cytopathic effect	EC50	1.6 µg/mL
CCOC(=O)c1cc(Cl)c(OCCCCC(=O)c2ccc(OC)cc2)c(Cl)c1	Serotype 2	HeLa	cytopathic effect	EC50	3.6 µM
N=C(N)CCCNC(=O)C1CCC(N)=N1	Serotype 2	-	-	MIC	>100 µg/mL
CCOC(=O)c1ccc(OCCCCC(=O)c2ccc(Cl)c(Cl)c2)cc1	Serotype 2	HeLa	cytopathic effect	EC50	>253 µM
N=C(N)CCNC(=O)C1CCCC(N)=N1	Serotype 2	-	-	MIC	100 µg/mL
CN(C)c1ncnc2c1ncn2Cc1cccc(NC(=O)C(Cc2ccccc2)NC(=O)OCc2ccccc2)c1	Serotype 1B	M-HELA	plaque count	EC50	>50 µM
CCC1COC(c2ccc(OCCCCC(=O)c3ccc(C)s3)cc2)=N1	TYPE 14	HeLa	cytopathic effect	EC50	0.81 µM
CSc1nsc(-c2ccc(OS(=O)(=O)c3ccc(C)cc3)cc2)c1C#N	Serotype 39 (group B)	HELA-OHIO	cytopathic effect	EC50	>25 µM
COc1ccc2nc([C@H](OC(C)=O)[C@@H](OC(C)=O)c3nc4ccc(OC)cc4[nH]3)[nH]c2c1	Serotype 42	WI-38	cytopathic effect	EC50	10 µg/mL
Nc1ncnc2c1ncn2Cc1ccc(NC(=O)C(N)Cc2ccccc2)cc1	Serotype 1B	M-HELA	plaque count	EC50	>50 µM
CCS(=O)(=O)c1ccc(NCc2ccc(Cl)cc2)nc1C#N	TYPE 2	HeLa	cytopathic effect	EC50	1.6 µg/mL
COc1ccc2nc([C@H](O)[C@@H](O)c3nc4ccc(OC)cc4[nH]3)[nH]c2c1	Serotype 1A	WI-38	cytopathic effect	EC50	0.1 µg/mL
Clc1ccc2c(c1)C=C(c1ccccc1)CO2	Serotype 1B	M-HELA	cytopathic effect	EC50	3.3 µM
N#CCCCCNC(=O)C1CCC(N)=N1	Serotype 2	-	-	MIC	>100 µg/mL
Cc1ccc(C(=O)CCCCCCOc2ccc(C3=N[C@@H](C)CO3)cc2)s1	TYPE 14	HeLa	cytopathic effect	EC50	0.26 µM
N=C(N)c1ccc(C2CCc3ccccc3O2)cc1	Serotype 1B	HeLa	plaque count	EC50	0.45 µM
CN=C1CCC(C(=O)NCCC(=N)N)N1	Serotype 2	-	-	MIC	>100 µg/mL
CC(C)CC(NC(=O)Oc1ccccc1)C(=O)Nc1cccc(Cn2cnc3c(N(C)C)ncnc32)c1	Serotype 1B	M-HELA	plaque count	EC50	>50 µM
Cc1ccc(Cn2cnc3c(N(C)C)nc(C(F)(F)F)nc32)cc1	TYPE 31	M-HELA	plaque count	EC50	1.2 µM
Nc1ncnc2c1ncn2Cc1cccc(NC(=O)C(Cc2ccccc2)NC(=O)OCc2ccccc2)c1	Serotype 1B	M-HELA	plaque count	EC50	>50 µM
Brc1ccc(C2=Cc3cc(Br)ccc3OC2)cc1	Serotype 1B	M-HELA	cytopathic effect	EC50	3.28 µM
N#Cc1cccnc1Oc1ccc(C(=O)c2ccccc2)cc1	TYPE 1A	HeLa	cytopathic effect	EC50	>10 µg/mL
Nc1nnc2c(n1)[nH]c1ccc([N+](=O)[O-])cc12	1059	WI-38	plaque count	EC50	220 µg/mL
CS(=O)(=O)c1ccc(Oc2ccc(Cl)c(Cl)c2)nc1	TYPE 32	-	cytopathic effect	EC50	4.1 µM
Brc1ccc2c(c1)C=C(c1ccccc1)CO2	Serotype 1B	M-HELA	plaque count	EC50	1.464 µM
Cc1ccc(CCCOc2c(C)cc(-c3nnn(C)n3)cc2C)nn1	serotypes 2 14 1A 1B 6 21 22 15 25 30 50 67 89 86 41	HeLa	cytopathic effect	EC80	0.25 µg/mL
CSc1ncnc2c1ncn2[C@@H]1OC2COP(=O)(O)OC2[C@H]1O	TYPE 1A	-	-	MIC	1–3.2 µg/mL
N#CCNC(=O)C1CCC(N)=N1	Serotype 2	-	-	MIC	>100 µg/mL
CCOC(=O)c1ccc(OCCC2CCN(c3ccc(C)nn3)CC2)cc1	Serotype 2	-	-	EC50	<0.035 µM
C=CCc1nc(C)n2c(=O)[nH]cnc12	TYPE 1A	WI-38	cytopathic effect	EC50	≥200 µg/mL
Cc1cc(CCCOc2c(C)cc(-c3nnn(C)n3)cc2C)on1	Serotype 14	-	plaque count	EC50	0.336 µg/mL
CN(C)c1nc(C(F)(F)F)nc2c1ncn2Cc1ccccc1	Serotype 3	M-HELA	plaque count	EC50	>8 µM
Cc1ccc(C(=O)CCCCOc2ccc(C3=NCCO3)cc2)s1	Serotype 14	HeLa	cytopathic effect	EC50	0.14 µM
Clc1ccc(C2=Cc3cc(Cl)ccc3OC2)cc1	Serotype 1B	M-HELA	plaque count	EC50	0.397 µM
Cc1ccc(Cn2cnc3c(N(C)C)nc(C(F)(F)F)nc32)c(C)c1	Serotype 1B	M-HELA	plaque count	EC50	0.11 µM
Cc1cc(CCCCCCCOc2ccc(C3=NC(C)(C)CO3)cc2)on1	TYPE 14	-	-	MIC	0.1 µM
COc1ccc(OCCCCCCn2ccnc2)c(Cl)c1	TYPE 61	HeLa	plaque count	EC50	29.1 µM
Cc1cc(CCCOc2c(C)cc(-c3coc(C)n3)cc2C)on1	Serotype 16	-	plaque count	EC50	0.954 µg/mL
CN(C)c1nc(C(F)(F)F)nc2c1ncn2Cc1ccc(-c2ccccc2)cc1	TYPE 1B	M-HELA	plaque count	EC50	>8 µM
N#Cc1ccc(OCCCCC(=O)c2ccccc2)cc1	Serotype 14	HeLa	cytopathic effect	EC50	140 µM
CSc1nsc(-c2ccc(OC(C)(C)C)cc2)c1C#N	Serotype 63 (group B)	HELA-OHIO	cytopathic effect	EC50	>40 µM
CO/N=C/c1cc(C)c(OCCCc2cc(C)no2)c(C)c1	TYPE 1A	KB	cytopathic effect / visual reading	EC50	<0.16 µg/mL
CN=C(c1ccccc1)c1ccc2nc(N)n(S(=O)(=O)C(C)C)c2c1	TYPE 14	HeLa	cytopathic effect / XTT	EC50	0.04 µg/mL
Brc1ccc(C2=Cc3ccccc3OC2)cc1	Serotype 1B	M-HELA	cytopathic effect	EC50	2.09 µM
COc1ccc(C(=O)CCCCOc2c(Cl)cc(C3=NCCO3)cc2Cl)cc1	Serotype 2	HeLa	cytopathic effect	EC50	>237 µM
CC(=O)c1ccc(Oc2ccc(C#N)cn2)cc1	TYPE 1A	HeLa	cytopathic effect	EC50	210 µM
Cc1ccc(C(=O)CCCCOc2ccc(C3=NCCO3)cc2)s1	TYPE 2	HeLa	cytopathic effect	EC50	1.31 µM
CCCO/N=C/c1ccc(OCCC2CCN(c3ccc(Cl)nn3)CC2)cc1	TYPE 1A	KB	cytopathic effect / visual reading	EC50	<0.0032 µg/mL
Cn1c2ccccc2c2n[nH]c(=S)nc21	HGP	WI-38	plaque count	EC50	45 µg/mL
N#Cc1ccc2c(c1)CC(c1ccccc1)CO2	Serotype 1B	HeLa	cytopathic effect	EC50	>8 µM
CCSc1ncnc2c1ncn2[C@@H]1OC2COP(=O)(O)OC2[C@H]1O	TYPE 2	-	-	MIC	3.2 µg/mL
CCO/N=C/c1cc(C)c(OCCCc2cc(C)no2)c(C)c1	TYPE 2	MRC-5	cytopathic effect / visual reading	EC50	<0.05 µg/mL
C=CCc1nc(C)n2c(=O)[nH]c(=S)[nH]c12	TYPE 9	WI-38	cytopathic effect	EC50	>100 µg/mL
Cn1c2ccccc2c2nnc(NCC(C)(CO)c3ccccc3)nc21	1059	WI-38	plaque count	EC50	45 µg/mL
Cc1cc(CCCCCOc2ccc(C3=NCCO3)c(Cl)c2)on1	TYPE 14	-	-	MIC	0.3 µM
Cc1ccc(C(=O)CCCCCCOc2ccc(C3=NC(C)CO3)cc2)s1	TYPE 2	HeLa	cytopathic effect	EC50	1.29 µM
COc1ccc(OC)c2[nH]c([C@H](O)[C@@H](O)c3nc4c(OC)ccc(OC)c4[nH]3)nc12	Serotype 1A	WI-38	cytopathic effect	EC50	320 µg/mL
CCOC(=O)c1ccc(OCCC2CCN(c3ccc(C)nn3)CC2)cc1	Serotype 14	HeLa	cytopathic effect	EC50	<0.1 µg/mL
CCOC(=O)c1ccc(OCCCCC(=O)c2ccc(Cl)cc2)cc1	Serotype 14	HeLa	cytopathic effect	EC50	2.7 µM
N=C(N)c1ccc(C2=Cc3cc(C(=N)N)ccc3OC2)cc1	Serotype 1B	HeLa	cytopathic effect	EC25	40 µM
CSc1nsc(-c2ccc(OCc3ccccc3)cc2)c1C#N	Serotype 29 (group B)	HELA-OHIO	cytopathic effect	EC50	20 µM
N#CCO/N=C/c1ccc(OCCC2CCN(c3ccc(Cl)nn3)CC2)cc1	TYPE 1A	KB	cytopathic effect / visual reading	EC50	<0.0032 µg/mL
CCCc1cc(CCCOc2c(C)cc(-c3nnc(C)o3)cc2C)on1	serotype 2 1A 1B 6 14 21 22 15 25 30 50 67 89 86 41	HeLa	plaque count	EC80	0.06 µg/mL
Cn1c2ccccc2c2nnc(NCCCCCCO)nc21	1059	WI-38	plaque count	EC50	20 µg/mL
COc1ccc(Cn2cnc3c(N(C)C)nc(C(F)(F)F)nc32)cc1C	Serotype 29	M-HELA	plaque count	EC50	>8 µM
COCc1ccc(CCCOc2cc(C)c(-c3noc(C(F)(F)F)n3)c(C)c2)nn1	serotypes 3 4 5 9 16 18 38 66 75 67	HeLa	cytopathic effect	EC50	0.1 µg/mL
CO/N=C/c1ccc(OCCC2CCN(c3ccc(C)nn3)CC2)c(C)c1	TYPE 1A	KB	cytopathic effect / visual reading	EC50	<0.003 µg/mL
CS(=O)(=O)c1ccc(Cc2ccc(Cl)c(Cl)c2)nc1	TYPE 8	HeLa	cytopathic effect	EC50	>10 µg/mL
CCO/N=C/c1ccc(OCCC2CCN(c3ccc(Cl)nn3)CC2)cc1	CH82 (ICAM-1 receptor group 56)	KB	neutral red	EC50	0.004 µM
O[C@@H](c1nc2ccc(Cl)cc2[nH]1)[C@@H](O)c1nc2ccc(Cl)cc2[nH]1	Serotype 1A	WI-38	cytopathic effect	EC50	100 µg/mL
Cc1cc(CCCCCOc2cc(Cl)c(-c3nnc(C)o3)c(Cl)c2)on1	Serotype 50	-	-	MIC80	0.041 µg/mL
CO/N=C/c1cccc(OCCC2CCN(c3ccc(Cl)nn3)CC2)c1	TYPE 2	MRC-5	cytopathic effect / visual reading	EC50	<0.001 µg/mL
Cc1ccc(C(=O)CCCCOc2ccc(C3=NCC(C)O3)cc2Cl)s1	TYPE 14	HeLa	cytopathic effect	EC50	4.9 µM
CCCc1cc(CCCOc2c(C)cc(-c3noc(C)n3)cc2C)on1	serotype 2 1A 1B 6 14 21 22 15 25 30 50 67 89 86 41	HeLa	plaque count	EC80	0.1 µg/mL
CN(C)c1ncnc2c1ncn2Cc1ccc(N)cc1	Serotype 1B	M-HELA	plaque count	EC50	>50 µM
Cn1c2ccccc2c2nnc(SCCN3CCOCC3)nc21	2060	WI-38	plaque count	EC50	20 µg/mL
C=CCc1ncn2c(=O)[nH]c(NC(C)=O)nc12	TYPE 1A	WI-38	cytopathic effect	EC50	>200 µg/mL
CN(C)c1ccc(Cn2cnc3c(N(C)C)nc(C(F)(F)F)nc32)cc1	Serotype 13	M-HELA	plaque count	EC50	>8 µM
CS(=O)(=O)c1ccc(Oc2ccc(C(=O)c3ccccc3)cc2)nc1	TYPE 32	HeLa	cytopathic effect	EC50	5 µg/mL
Cc1cc(CCCCCOc2c(Cl)cc(C3=NCCO3)cc2Cl)on1	Serotype 2	HeLa	cytopathic effect	EC50	0.03 µM
CCS(=O)(=O)c1ccc(NCc2ccc(Cl)c(Cl)c2)nc1	TYPE 1A	HeLa	cytopathic effect	EC50	>10 µg/mL
Cc1cc(CCCCCOc2cc(Cl)c(-c3nnco3)c(Cl)c2)on1	Serotype 15	-	-	MIC80	1.92 µg/mL